# According to PMC2690590, “Functional recombinant MHC class II molecules and high-throughput peptide-binding assays” (Immunome Research, 2009):
# Target: DQA1*0501/DQB1*0201 (human)
# Experiment: AlphaScreen or HTRF
substance,measurement,value
6xH Influenza A (PR8) HA 109–119 peptide …,Kd,3.91 µM
